Pooled drug test results. Numbers come from NIAID ChemDB, via PubChem.

Common to all: enzyme or target tests

Rows are shuffled and stem from different studies. An empty or dashed field is not shown. a–b is a range or a potency band. ICn is the concentration giving n% inhibition. Percent inhibition refers to the dose given; in toxicity tests it is the harm to the cells.

compound,protein,agent,measure,dose,value
CC[C@@H](C=O)NC(=O)[C@@H]1C[C@@H](OC(=O)Nc2cccc(OC)c2)CN1C(=O)[C@@H](NC(=O)[C@@H](NC(=O)c1cnccn1)C(C)C)C(C)C,NS3 protease,Hepatitis C virus,Ki,,1–100 µM
O=C(O)c1ccc2c(c1)nc(-c1ccc3cc(-c4ccccc4)cnc3c1)n2C1CCCCC1,NS5B polymerase,Hepatitis C virus,inhibition,100 µM,98.13%
O=C(O)c1cc2nc(-c3ccc(OCc4cccc(C(F)(F)F)c4)cc3)c(C3CCCCC3)c(=O)n2[nH]1,RNA-dependent RNA polymerase,Hepatitis C virus,IC50,,<1 µM
COc1nc(Nc2ccc3cn[nH]c3c2)nc(NN2CCN(C)CC2)n1,DNA polymerase,Hepatitis B virus,inhibition,1 µg/mL,54%
O=C(O)c1cc2ncc(-c3ccc(OCc4ccccc4)cc3)c(-c3ccccc3)n2n1,RNA-dependent RNA polymerase,Hepatitis C virus,IC50,,1–10 µM
COc1ccccc1NC(=O)Nc1cscc1-c1nc(C(=O)O)c(O)c(=O)[nH]1,HCV polymerase,Hepatitis C virus,IC50,,<25 µM
COc1nc(NCCCN2CCOCC2)nc(Nc2ccc3cn[nH]c3c2)n1,DNA polymerase,Hepatitis B virus,IC50,,<0.01 µg/mL
CC[C@H](NC(=O)[C@H](CC(C)C)NC(=O)[C@@H](NC(=O)[C@@H](NC(=O)[C@H](CC(=O)O)CC(=O)[C@H](CCC(=O)O)NC(C)=O)C(C)C)C(C)C)C(=O)C(=O)NC(C)COC,NS3 protease,Hepatitis C virus,Ki,,<1 µM
CC(C)(C)c1ccc(CN(C(=O)C2CCCCC2)c2cc(-c3ccccc3)sc2C(=O)O)cc1,NS3 ATPase,Hepatitis C virus,IC50,,<5 µM
COc1nc(Nc2ccc3[nH]ncc3c2)nc(N2CCCC2)n1,DNA polymerase,Hepatitis B virus,inhibition,1 µg/mL,67%
O=C(Nc1ocnc1-c1nc(C(=O)O)c(O)c(=O)[nH]1)c1ccccc1,HCV polymerase,Hepatitis C virus,IC50,,<100 µM
Cc1nn2c(C3CCCCC3)c(-c3ccc(F)cc3)cnc2c1C(=O)O,RNA-dependent RNA polymerase,Hepatitis C virus,IC50,,>10 µM
O=C(O)c1ccc2c(c1)nc(-c1ccc3nc(-c4cccc(O)c4)ccc3c1)n2C1CCCCC1,NS5B polymerase,Hepatitis C virus,inhibition,100 µM,101%
O=C(O)c1nc(-c2ccccc2NS(=O)(=O)c2cccc3ccccc23)[nH]c(=O)c1O,HCV polymerase,Hepatitis C virus,IC50,,<100 µM
O=C(O)c1ccc2c(c1)nc(-c1ccc3nc(CCn4cccn4)ccc3c1)n2C1CCCCC1,NS5B polymerase,Hepatitis C virus,inhibition,100 µM,97.06%
CNC(=O)c1c(-c2ccc(F)cc2)oc2cc(N3CCOCC3)c(OCc3ccccc3)cc12,Nonstructural protein 5B,Hepatitis C virus,IC50,,≤0.5 µM
COc1ccc(-c2cnc3c(C(=O)O)cnn3c2C2CCCCC2)c(C)c1,RNA-dependent RNA polymerase,Hepatitis C virus,IC50,,1–10 µM
CNC(=O)c1c(-c2ccc(F)cc2)oc2cc(N3CCOCC3)c(OC3CCCC3)cc12,Nonstructural protein 5B,Hepatitis C virus,IC50,,≤0.5 µM
CN(C(=O)c1cc2ccccc2s1)c1cc(-c2ccccc2)sc1C(=O)O,NS3 ATPase,Hepatitis C virus,IC50,,5–20 µM
O=C(NC(Cc1c[nH]c2ccc(O)cc12)C(=O)O)c1ccc2c(c1)nc(-c1ccc3cc(-c4ccccc4)cnc3c1)n2C1CCCCC1,NS5B polymerase,Hepatitis C virus,inhibition,100 µM,100%
COc1nc(Nc2ccc3[nH]ncc3c2)nc(N2CCN(C)CC2)n1,DNA polymerase,Hepatitis B virus,inhibition,0.1 µg/mL,42%
O=C(O)c1ccc2c(c1)nc(-c1ccc3nccc(NCCCCO)c3c1)n2C1CCCCC1,NS5B polymerase,Hepatitis C virus,inhibition,100 µM,92.05%
CC[C@@H](C=O)NC(=O)[C@@H]1C[C@@H](OCc2ccccc2)CN1C(=O)[C@@H](NC(=O)Cc1ccsc1)C(C)C,NS3 protease,Hepatitis C virus,Ki,,>100 µM
O=C(O)c1cc2nc(-c3cccc(Cl)c3)cc(-c3ccc(OCc4ccccc4)cc3)n2n1,RNA-dependent RNA polymerase,Hepatitis C virus,IC50,,1–10 µM
O=C(Cc1cn(Cc2ccccc2)c2ccccc12)Nc1ccsc1-c1nc(C(=O)O)c(O)c(=O)[nH]1,HCV polymerase,Hepatitis C virus,IC50,,<25 µM
CCOC(=O)C1=CN(N2CCN(c3nc(Nc4ccc5cn[nH]c5c4)nc(OC)n3)CC2)C(SC)N=C1,DNA polymerase,Hepatitis B virus,inhibition,0.1 µg/mL,17%
C=CCN(C(=O)Cc1ccc2ccccc2c1)c1cc(-c2ccccc2)sc1C(=O)O,NS3 ATPase,Hepatitis C virus,IC50,,>20 µM
Fc1cc(COc2ccc(-c3cnc4c(-c5nn[nH]n5)cnn4c3C3CCCCC3)cc2)cc(C(F)(F)F)c1,RNA-dependent RNA polymerase,Hepatitis C virus,IC50,,1–10 µM
CC(C)N(C(=O)c1ccc(Cl)cc1Br)c1cc(-c2ccccc2)sc1C(=O)O,NS3 ATPase,Hepatitis C virus,IC50,,<5 µM
O=C(O)c1ccc2c(c1)nc(-c1ccc3nc(-c4ccc(Oc5ccc(Cl)cc5)cc4Cl)ccc3c1)n2C1CCCCC1,NS5B polymerase,Hepatitis C virus,inhibition,100 µM,100%
Cc1ccc(S(=O)(=O)Nc2ccccc2-c2nc(C(=O)O)c(O)c(=O)[nH]2)cc1,HCV polymerase,Hepatitis C virus,IC50,,<100 µM
CCOC(=O)c1ccc2c(c1)nc(-c1ccc3nc(-c4cc(OC)ccc4-c4ccc(F)cc4)ccc3c1)n2C1CCCCC1,NS5B polymerase,Hepatitis C virus,inhibition,33 µM,64.68%
CNC(=O)c1c(-c2ccc(F)cc2)oc2cc(-c3ncnn3C)c(OC)cc12,Nonstructural protein 5B,Hepatitis C virus,IC50,,≤0.5 µM
CCOC(=O)C1=CN(N2CCN(c3nc(Nc4ccc5[nH]ncc5c4)nc(OC)n3)CC2)C(SC)N=C1,Nonstructural protein 5B,Hepatitis C virus,inhibition,1 µg/mL,18%
O=C(O)c1nc(-c2ccccc2NS(=O)(=O)c2c(Cl)sc(Cl)c2Br)[nH]c(=O)c1O,HCV polymerase,Hepatitis C virus,IC50,,<100 µM
O=C(O)c1cc2nc(-c3ccc(Cl)cc3)cc(NCc3ccccc3)n2n1,RNA-dependent RNA polymerase,Hepatitis C virus,IC50,,>10 µM
O=C(Nc1cccc(-c2nc(C(=O)O)c(O)c(=O)[nH]2)c1)NC1CCCCC1,HCV polymerase,Hepatitis C virus,IC50,,<100 µM
CN(C(=O)c1ccc2cc(-c3nc4cc(C(=O)O)ccc4n3C3CCCCC3)ccc2n1)c1ccc(Cl)cc1,NS5B polymerase,Hepatitis C virus,inhibition,100 µM,102%
COCCNc1nc(Nc2ccc3cn[nH]c3c2)nc(OC)n1,Nonstructural protein 5B,Hepatitis C virus,inhibition,1 µg/mL,41%
CN(C(=O)C1CCCCC1)c1cc(-c2ccccc2)sc1C(=O)O,NS3 ATPase,Hepatitis C virus,IC50,,<5 µM
CNC(=O)c1c(-c2ccc(F)cc2)oc2cc(N(C3CCC3)S(C)(=O)=O)c(OC(C)C)cc12,Nonstructural protein 5B,Hepatitis C virus,IC50,,≤0.5 µM
CC[C@H](NC(=O)[C@H](CC(C)C)NC(=O)[C@@H](NC(=O)[C@@H](NC(=O)c1cnccn1)C(C)C)C(C)C)C(=O)C(=O)N(CC)CC,NS3 protease,Hepatitis C virus,Ki,,>100 µM